Publication PMC7918931 (Viruses, 2021)

The chains behind the UniProt entries cited, without tags or fusion partners. Residues count along the entry.
UniProt Q9HAU4, 297-330: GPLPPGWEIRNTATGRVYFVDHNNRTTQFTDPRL

Target: GST-SMURF2-WW3 (Homo sapiens, UniProt Q9HAU4)
Assay type: binding
Conditions: pH 7.4

For `CC[C@H](C)[C@H](NC(=O)[C@H](C)NC(=O)[C@H](CCC(=O)O)NC(=O)[C@H](CCSC)NC(=O)[C@H](Cc1ccc(O)cc1)NC(=O)[C@H](CCC(=O)O)NC(=O)[C@@H]1CCCN1C(=O)[C@@H]1CCCN1C(=O)[C@H](C)NC(=O)[C@@H](NC(=O)[C@@H]1CCCN1C(=O)[C@H](CC(C)C)NC(=O)[C@@H](NC(=O)[C@@H](NC(=O)[C@H](CCCNC(=N)N)NC(=O)[C@H](CCCNC(=N)N)NC(=O)[C@@H](N)CCSC)C(C)C)[C@@H](C)CC)[C@@H](C)O)C(=O)N[C@@H](CCCCNC(=O)CCCC[C@@H]1SC[C@@H]2NC(=O)N[C@@H]21)C(=O)O` [eVP40-WT peptide], the “binding to SMURF2 WW3 (in words)” value was “bound robustly to WW3 of SMURF2 in a concentration-dependent manner”.
